According to the CheMixHub viscosity set:

Legend:
[1] = xn = mol fraction of the nth substance listed; conditions: 101.3 kPa
[2] = 101.3 kPa

| SMILES | viscosity ([1]; 293.15 K, x1 = 0.6) | viscosity ([1]; 298.15 K, x1 = 0.4) | viscosity ([1]; 298.15 K, x1 = 0.6) | viscosity ([1]; 303.15 K, x1 = 0.2) | viscosity ([1]; 303.15 K, x1 = 0.4) | viscosity ([1]; 303.15 K, x1 = 0.6) | viscosity ([1]; 308.15 K, x1 = 0.2) | viscosity ([1]; 308.15 K, x1 = 0.4) | viscosity ([1]; 313.15 K, x1 = 0.2) | viscosity ([2]; 293.15 K) | viscosity ([2]; 298.15 K) | viscosity ([2]; 303.15 K) | viscosity ([2]; 308.15 K) | viscosity ([2]; 313.15 K) | viscosity ([2]; 318.15 K) | viscosity ([2]; 323.15 K) |
| --- | --- | --- | --- | --- | --- | --- | --- | --- | --- | --- | --- | --- | --- | --- | --- | --- |
| CCCC[n+]1ccccc1.O=S(=O)(F)[N-]S(=O)(=O)F + CCCC[n+]1ccccc1.F[B-](F)(F)F | 76.9 ± 16 mPa·s | 80.2 ± 16 mPa·s | 61.2 ± 12 mPa·s | 85.7 ± 17 mPa·s | 63.7 ± 13 mPa·s | 49.6 ± 10 mPa·s | 67.5 ± 14 mPa·s | 51.4 ± 10 mPa·s | 54.2 ± 11 mPa·s |  |  |  |  |  |  |  |
| CCCC[n+]1ccccc1.O=S(=O)(F)[N-]S(=O)(=O)F |  |  |  |  |  |  |  |  |  | 48.8 ± 9.8 mPa·s | 40 ± 8 mPa·s | 33.3 ± 6.7 mPa·s | 28.1 ± 5.6 mPa·s | 24 ± 4.8 mPa·s | 20.7 ± 4.1 mPa·s | 18 ± 3.6 mPa·s |

± gives the uncertainty stated by the source.
